In assay [1] the target is T1, Biotin-labeled BatCoV-BtkY72 stem helix peptide (Bat SARS-related coronavirus BtKY72 …, UniProt A0A3Q8AKM0, biotin (position not given)).
T1 chain: ESFKQELDKYFKNH
Particulars: both partners purified.

Assay [2] addresses T2, SARS-CoV-2 spike stem helix peptide (residues 1146-1159), displayed on yeast (SARS-CoV-2).
T2 chain: DSFKEELDKYFKNH
Particulars: partners not purified.

The record followed here is publication doi:10.1101/2024.06.06.597810 (bioRxiv, 2024).

Positions count from the first letter of the chain named. Numbers in names are those of the source.

B1: S2P6 UCA VH Y32Q Fab (Fab, V domains shown)
VH: QVQLVQSGAEVKKPGASVKVSCKASGYTFTSQYMHWVRQAPGQGLEWMGIINPSGGSTSYAQKFQGRVTMTRDTSTSTVYMELSSLRSEDTAVYYCARGSPKGAFDYWGQGTLVTVSS
VL: not shown
B1: the binding result in assay [1] is recorded as “binds”.

B2: S2P6 UCA VH S56H Fab (Fab, V domains shown)
VH: B1 VH with Q32Y, S57H
VL: not shown
Consider B2, for which the binding result in assay [1] is on record as “binds”.

B3: S2P6 UCA VH Y32Q/M48I double mutant Fab (Fab, V domains shown)
VH: B1 VH with M48I
VL: not shown
With B3, in assay [1], the binding result is listed as “binds”.

B4: S2P6 UCA (fully germline-reverted S2P6) in scFv format (scFv, V domains shown)
VH: B1 VH with Q32Y
VL: not shown
B4: in assay [2], the binding result is “no binding”.

B5: S2P6 UCA VH M48I Fab (Fab, V domains shown)
VH: B1 VH with Q32Y, M48I
VL: not shown
In the case of B5, the binding result in assay [1] is recorded as “binds”.
